Anti-infective test results gathered from many reports (values: NIAID ChemDB through PubChem).

All rows: tests in culture; agent: Mycobacterium tuberculosis

Rows are shuffled and stem from different studies. A number after MIC or MFC names an inhibition level or a share of isolates. Percent inhibition refers to the dose given; in toxicity tests it is the harm to the cells. ECn: concentration that inhibits the pathogen or its effect by n%. MIC bound comes from a single tested concentration. An empty or dashed field is not shown.

compound,strain,changes,cell line,read by,measure,tested at,result
Nc1ccccc1C(=O)Nc1ccc(F)cc1,My 331/88,,,,MIC,,>500 µM
O=c1c2ccccc2c(=O)c2c1ccc1[nH]c3c(ccc4c(=O)c5ccccc5c(=O)c43)[nH]c12,H37Rv,,,BACTEC,MIC bound,,>12.5 µg/mL
CO[C@@]1(NC(=O)Cc2cccs2)C(=O)N2C(C(=O)O)=C(COC(N)=O)CS[C@@H]21,H37Ra,,,,MIC,,>16 µg/mL
CCC(NCNC(=O)C1=C(O)C2(O)C(=O)C3=C(O)c4c(O)cccc4[C@](C)(O)[C@@H]3C[C@@H]2C(N(C)C)C1=O)C(=O)[O-].[Na+],H37Rv,,,BACTEC,inhibition,12.5 µg/mL,9%
Cc1ccc(-n2c(=O)[nH]c3ccccc3c2=O)cc1,My 331/88,,,,MIC,,>500 µM
NNc1ccnc2cc(Cl)cc(Cl)c12,H37Rv,,VERO,,MIC,,>12.5 µg/mL
CCOC(=O)C1=C(c2ccco2)NN=C(c2ccccc2)C1,H37Rv,,,BACTEC,MIC bound,,>12.5 µg/mL
CC(=O)Nc1ccc(S(=O)(=O)c2ccc(Nc3ccnc4ccc(Cl)cc34)cc2)cc1,Strain 2 (MDR),,,,MIC,,4 µg/mL
O=C(c1ccc(O)cc1)N1N=C(c2ccccc2)CC1c1ccc(Cl)cc1,H37Ra,,,MTT,MIC,,66 µM
Cc1cccc(CC(=O)N2CCN(S(=O)(=O)c3cccc4cnccc34)CC2)c1,SRMV2.6,Inosine monophosphate dehydrogenase-resistant,,resazurin,MIC90,,>250 µM
CCC(C)N(C(=O)COc1cc2c(O)c3c(O)c(C)c4c(c13)C(=O)[C@@](C)(O/C=C/[C@H](OC)[C@@H](C)[C@@H](OC(C)=O)[C@H](C)[C@H](O)[C@H](C)[C@@H](O)[C@@H](C)/C=C/C=C(/C)C(=O)N2)O4)C(C)CC,H37Rv,,,,MIC,,0.3 µg/mL
Cc1ccc(-c2ccc(Cl)cc2)n1Cc1ccccc1,H37Rv,,,,inhibition,12.5 µg/mL,96%
COc1cccc2c(Nc3ccc(S(=O)(=O)Nc4ccnn4-c4ccccc4)cc3)ccnc12,Strain 1 (MDR),,,,MIC,,2 µg/mL
CCN(CC)c1ccc(/C=N/Nc2ccnc3cc(Cl)ccc23)cc1,H37Rv,,VERO,,MIC,,3.13 µg/mL
CO[C@H]1/C=C/O[C@@]2(C)Oc3c(C)c(O)c4c(O)c(cc(OCC(=O)N(C)N5CCOCC5)c4c3C2=O)NC(=O)/C(C)=C\C=C\[C@H](C)[C@H](O)[C@@H](C)[C@@H](O)[C@@H](C)[C@H](OC(C)=O)[C@@H]1C,H37Rv,,,,MIC,,0.18 µg/mL
CC(C)Cc1ccc(C(C)C(=O)Nn2c(-c3ccccc3)ccc2-c2ccccc2)cc1,H37Rv (ATCC 27294),,,resazurin,inhibition,100 µg/mL,100%
O=c1oc2ccccc2c(=O)n1-c1ccc(F)cc1,My 331/88,,,,MIC,,125 µM
COc1ccc2nc(-c3ccccc3)cc(NNC(=O)c3ccncc3)c2c1,Strain 2 (MDR),,,,MIC,,10 µg/mL
COc1ccc(C(=O)Cc2nc3nnc(N)n3[nH]c2=O)cc1,H37Rv,,,BACTEC,inhibition,12.5 µg/mL,9%
CC1(C)[C@H](C(=O)O)N2C(=O)C[C@H]2S1(=O)=O,Isolate 5,,,,MIC,,>16 µg/mL
Cn1cc(NC(=O)c2cc(NC(=O)c3cccc(C(=O)Nc4cc(C(=O)Nc5cc(C(=O)NCCC(=N)N)n(C)c5)n(C)c4)c3)cn2C)cc1C(=O)NCCC(=N)N,H37Rv,,,BACTEC,inhibition,12.5 µg/mL,65%
O=c1[nH]c2ccccc2c(=O)n1-c1ccc(F)cc1,My 331/88,,,,MIC,,>250 µM
O=C(C1CCCCC1)N1CCC(NS(=O)(=O)c2cccc3cnccc23)CC1,SRMV2.6,Inosine monophosphate dehydrogenase-resistant,,resazurin,MIC90,,>100 µM
Cc1c(CN2CCOCC2)c(CN2CCOCC2)c(-c2ccc(Cl)cc2)n1C1CCCCC1,103471,,,,MIC,,4 µg/mL
COc1c2c(c(CC=C(C)C)c3oc(=O)c(-c4ccc(O)cc4)c(O)c13)OC(C)(C)C=C2,H37Rv,,,BACTEC,inhibition,12.5 µg/mL,38%
NNC(=O)c1ccncc1,H37Ra,,,visual reading,MBC,,5 µM
CCCC(=O)OCc1cc(=O)n(C)c2c3c4c(cc12)c(C)cc(=O)n4CO3,TAC-R,,,,MIC,,0.2 µg/mL
COc1cccc2c(NNC(=O)c3ccncc3)cc(-c3ccccc3)nc12,Strain 1 (MDR),,,,MIC,,9 µg/mL
CC[C@H]1OC(=O)[C@H](C)[C@@H](O[C@H]2C[C@@](C)(OC)[C@@H](O)[C@H](C)O2)[C@H](C)[C@@H](O[C@@H]2O[C@H](C)C[C@H](N(C)C)[C@H]2O)[C@](C)(OC)C[C@@H](C)C(=O)[C@H](C)[C@@H](O)[C@]1(C)O,18 strains (levofloxacin-resistant),,,,MIC90,,25 µg/mL
CC(Nc1ccc2ccccc2c1)C(=O)NN,Drug-resistant,,,,EC50,,0.5 µg/mL
CN1c2ccc(Cl)cc2C2(C(=O)NN)C(C(=O)NN)N(C3CCCCC3)C(=O)C12N,H37Rv,,,BACTEC,MIC,,≥12.8 µg/mL
Cc1cc(-c2cc3c(cc2F)c(=O)c(C(=O)O)cn3C2CC2)cc(C)n1,1773-6,,,,MIC,,1 µg/mL
Cc1cc(=O)oc2ccc(OCC(=O)Nn3c(-c4ccccc4)ccc3-c3ccccc3)cc12,H37Rv (ATCC 27294),,,resazurin,inhibition,100 µg/mL,97%
COc1ccc2cc(NCC(=O)NN)ccc2c1,H37Rv,,,,EC50,,5 µg/mL
C[C@@H](O)[C@H]1C(=O)N2C(C(=O)O)=C(SCCN=CN)C[C@H]12,Isolate 2,,,,MIC,,4 µg/mL
C[C@H]1COc2c(N3CCN(C)CC3)c(F)cc3c(=O)c(C(=O)O)cn1c23,23 strains (rifampin- isoniazid-susceptible),,,,MIC50,,0.39 µg/mL
O=c1/c(=C/c2ccccc2[N+](=O)[O-])sc2nnc(-c3cccnc3)n12,H37Rv,,,BACTEC,MIC,,≥12.5 µg/mL
CCCCc1ccc2nc(C)cc(N/N=C/c3ccc(OC)c4ccccc34)c2c1,H37Rv,,VERO,,inhibition,12.5 µg/mL,100%
O=C(Nc1cccc(Cl)c1)c1ccccc1O,My 331/88,,,,MIC,,16 µM
S=C(Nc1ccccc1)N1N=C(c2ccccc2)CC1c1ccccc1Cl,H37Ra,,,visual reading,MBC,,>511 µg/mL
Cc1cc(=O)oc2ccc(OCC(=O)Nn3c(C)ccc3-c3ccccc3)cc12,H37Rv (ATCC 27294),,,resazurin,inhibition,100 µg/mL,100%
CCOc1ccccc1NC(=O)C(=O)CC(=O)c1c(C)n([O-])c2ccccc2[n+]1=O,H37Rv,,,resazurin,MIC bound,,>6.25 µg/mL
CN(C)c1ccc(C2CC(c3ccccc3)=NN2C(=O)c2ccc(O)cc2)cc1,H37Ra,,,visual reading,MBC,,519 µM
CCCCN(C(=O)COc1cc2c(O)c3c(O)c(C)c4c(c13)C(=O)[C@@](C)(O/C=C/[C@H](OC)[C@@H](C)[C@@H](OC(C)=O)[C@H](C)[C@H](O)[C@H](C)[C@@H](O)[C@@H](C)/C=C/C=C(/C)C(=O)N2)O4)N1CCOCC1,H37Rv,,,,MIC,,1.5 µg/mL
O=C(Nc1cccc(Cl)c1Cl)N1CCN(S(=O)(=O)c2cccc3cnccc23)CC1,SRMV2.6,Inosine monophosphate dehydrogenase-resistant,,resazurin,MIC90,,>250 µM
Cc1occc1C(=S)Nc1ccc(Cl)c(/C=N/OC(C)C)c1,H37Rv,,,,MIC,,12.5 µg/mL
COc1ccc(C2CC(c3ccccc3)=NN2C(=S)Nc2ccccc2)cc1,H37Ra,,,visual reading,MBC,,>517 µM
CC(=O)NC[C@H]1CN(c2ccc(N3CCN(Cc4ccc([N+](=O)[O-])o4)CC3)c(F)c2)C(=O)O1,16 isolates (MDR),,,,MIC50,,4 µg/mL
OC(c1cc(-c2ccc(C(F)(F)F)cc2)nc(C(F)(F)F)c1)C1CCCCN1,H37Rv,,,,inhibition,6.25 µg/mL,95%
CO[C@H]1/C=C/O[C@@]2(C)Oc3c(C)c(O)c4c(O)c(c(/C=N/N5CCN(C/C=C/c6ccccc6)CC5)c(O)c4c3C2=O)NC(=O)/C(C)=C\C=C\[C@H](C)[C@H](O)[C@@H](C)[C@@H](O)[C@@H](C)[C@H](OC(C)=O)[C@@H]1C,MTB1 (INH-R),,,,MIC,,0.03 µg/mL
O=C(CCN1C(=O)/C(=C/c2ccc(Cl)cc2)SC1=S)NNC(=O)c1ccccc1,H37Rv,,,,MIC,,56.18 µM
COc1ccc2nc(C)cc(N/N=C/c3ccc(OC)c4ccccc34)c2c1,H37Rv,,VERO,,MIC,,1.56 µg/mL
COC(=O)C(Cc1nc2ccc(Cl)cc2[nH]c1=O)/C(=N\N)C(=O)Nc1cc(C)c(Cl)cc1S(=O)(=O)O,H37Rv,,,BACTEC,MIC bound,,>12.5 µg/mL
COc1c(N2CCNC(C)C2)c(F)cc2c(=O)c(C(=O)O)cn(C3CC3)c12,22 strains (rifampin- isoniazid-resistant),,,,MIC90,,1.56 µg/mL
CNC(=O)COc1cc2c(O)c3c(O)c(C)c4c(c13)C(=O)[C@@](C)(O/C=C/[C@H](OC)[C@@H](C)[C@@H](OC(C)=O)[C@H](C)[C@H](O)[C@H](C)[C@@H](O)[C@@H](C)/C=C/C=C(/C)C(=O)N2)O4,H37Rv,,,,MIC,,0.15 µg/mL
O=C(CCN1C(=O)/C(=C/c2ccc3c(c2)OCO3)SC1=S)NNC(=O)c1cccnc1,H37Rv,,,,MIC,,54.81 µM
S=C(S)Nc1cccc2ccccc12,H37Rv,,,BACTEC,MIC,,≥12.5 µg/mL
CCOc1ccc2ccccc2c1C(=O)N[C@@H]1C(=O)N2[C@@H]1SC(C)(C)[C@@H]2C(=O)O,Isolate 4,,,,MIC,,>16 µg/mL
COc1ccc2nc(N/N=C(/c3ccccc3)c3ccccn3)cc(C)c2c1,H37Rv,,,BACTEC,inhibition,12.5 µg/mL,98%
NC(=S)NNC(=O)c1ccncc1,Strain 1 (MDR),,,,MIC,,1 µg/mL
Cc1ccc(-c2ccccc2)n1NC(=O)c1ccncc1,H37Rv,,,turbidity,EC50,,4.92 µg/mL
O=C(NCCNS(=O)(=O)c1cccc2cnccc12)C1CCCCC1,SRMV2.6,Inosine monophosphate dehydrogenase-resistant,,resazurin,MIC90,,>250 µM
Cc1ccc(NC(=O)c2ccccc2O)cc1,My 331/88,,,,MIC,,62 µM
Cc1ccc(-c2ccc(Cl)cc2)[nH]1,H37Rv,,,,MIC,,<12.5 µg/mL
CCOC(=O)C(c1c(O)c2ccccc2oc1=O)c1c(O)c2ccccc2oc1=O,H37Rv,,,BACTEC,MIC bound,,>12.5 µg/mL
C[C@H]1COc2c(N3CCN(C)CC3)c(F)cc3c(=O)c(C(=O)O)cn1c23,102 strains,,,,MIC,,8 µg/mL
COc1ccc(C[C@H]2NC[C@H](O)[C@H]2OC(C)=O)cc1,H37Rv,,,BACTEC,MIC,,>4 µg/mL
Nc1ccccc1C(=O)Nc1ccc(Cl)c(Cl)c1,My 331/88,,,,MIC,,62 µM
CC1COc2c(N3CCN(C)CC3)c(F)cc3c(=O)c(C(=O)O)cn1c23,250 isolates,,,,Mean MIC,,0.893 µg/mL
O=C(Nc1ccc(Cl)c([N+](=O)[O-])c1)N1CCN(S(=O)(=O)c2cccc3cnccc23)CC1,SRMV2.6,Inosine monophosphate dehydrogenase-resistant,,resazurin,MIC90,,>100 µM
Cc1c(CN2CCN(C)CC2)c(CN2CCN(C)CC2)c(-c2ccc(Cl)cc2)n1C1CCCCC1,103471,,,,MIC,,8 µg/mL
O=C(CCN1C(=O)/C(=C/c2ccc(OCc3ccccc3)cc2)SC1=S)NNC(=O)c1ccncc1,H37Rv,,,,MIC,,24.13 µM
COc1ccc(CNC(=O)C2C(=O)C(=O)N(Cc3ccc(OC)c(OC)c3)C2=O)cc1OC,H37Rv,,,resazurin,MIC bound,,>6.25 µg/mL
Cc1c(F)c(N2CCNC(C)C2)cc2c1c(=O)c(C(=O)O)cn2C1CC1,250 isolates,,,,MIC90,,1 µg/mL
Cc1[nH]c(=O)c2oc3cc4ccccc4cc3c2c1C(=O)O,H37Rv,,,BACTEC,inhibition,12.5 µg/mL,-22%
Cc1ccc2nccc(Nc3ccc(S(=O)(=O)Nc4ccnn4-c4ccccc4)cc3)c2c1,Strain 1 (MDR),,,,MIC,,4 µg/mL
O=c1oc2ccccc2c(=O)n1-c1ccc(Cl)cc1,My 331/88,,,,MIC,,31 µM
Cc1ccc(C)n1C1CCCCC1,H37Rv,,,,MIC,,<12.5 µg/mL
CC1CCc2nc(N)nc(CC3CC(=O)NC(=O)C3)c2C1,H37Rv,,,BACTEC,inhibition,12.5 µg/mL,10%
COc1cc(/C=C2\SC(=S)N(CCC(=O)NNC(=O)c3cccc4ccccc34)C2=O)cc(OC)c1OC,H37Rv,,,,MIC,,5.67 µM

The last 7 rows once more:

| compound | strain | changes | cell line | read by | measure | tested at | result |
|---|---|---|---|---|---|---|---|
| Cc1c(F)c(N2CCNC(C)C2)cc2c1c(=O)c(C(=O)O)cn2C1CC1 | 250 isolates |  |  |  | MIC90 |  | 1 µg/mL |
| Cc1[nH]c(=O)c2oc3cc4ccccc4cc3c2c1C(=O)O | H37Rv |  |  | BACTEC | inhibition | 12.5 µg/mL | -22% |
| Cc1ccc2nccc(Nc3ccc(S(=O)(=O)Nc4ccnn4-c4ccccc4)cc3)c2c1 | Strain 1 (MDR) |  |  |  | MIC |  | 4 µg/mL |
| O=c1oc2ccccc2c(=O)n1-c1ccc(Cl)cc1 | My 331/88 |  |  |  | MIC |  | 31 µM |
| Cc1ccc(C)n1C1CCCCC1 | H37Rv |  |  |  | MIC |  | <12.5 µg/mL |
| CC1CCc2nc(N)nc(CC3CC(=O)NC(=O)C3)c2C1 | H37Rv |  |  | BACTEC | inhibition | 12.5 µg/mL | 10% |
| COc1cc(/C=C2\SC(=S)N(CCC(=O)NNC(=O)c3cccc4ccccc34)C2=O)cc(OC)c1OC | H37Rv |  |  |  | MIC |  | 5.67 µM |